Assay results reported in publication PMC9371974 (Nature Structural & Molecular Biology, 2022).

Chains of the proteins cited; added tags and fusions are not shown. Residues count along the entry.
UniProt P04925, 23-230: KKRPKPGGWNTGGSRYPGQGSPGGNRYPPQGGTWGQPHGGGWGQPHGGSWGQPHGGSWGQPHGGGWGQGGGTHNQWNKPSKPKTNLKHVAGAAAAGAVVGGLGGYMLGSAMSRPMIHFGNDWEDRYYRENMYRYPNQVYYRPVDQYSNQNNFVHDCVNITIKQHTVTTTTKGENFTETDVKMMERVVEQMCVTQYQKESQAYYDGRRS
UniProt P04925, 23-110: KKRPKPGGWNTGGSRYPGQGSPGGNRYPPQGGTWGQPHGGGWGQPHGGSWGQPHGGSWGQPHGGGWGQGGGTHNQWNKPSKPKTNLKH
UniProt P04925, 23-231: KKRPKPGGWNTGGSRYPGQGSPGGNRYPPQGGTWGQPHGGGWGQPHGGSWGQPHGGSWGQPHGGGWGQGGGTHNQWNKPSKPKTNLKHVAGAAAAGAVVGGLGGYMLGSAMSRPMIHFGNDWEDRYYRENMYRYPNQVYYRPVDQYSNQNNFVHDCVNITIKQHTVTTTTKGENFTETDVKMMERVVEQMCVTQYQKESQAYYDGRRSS

Experiments:
Settings in all cases: both partners purified
[1] = target: recombinant mouse prion protein immobilised for SPR (mPrP) (Mus musculus, UniProt P04925); experiment: SPR
[2] = target: recombinant mouse PrP flexible tail fragment (rmPrP23-110) (Mus musculus, UniProt P04925); experiment: ELISA
[3] = target: T1, recombinant wild-type murine PrP (rmPrP) immobilised for SPR (Mus musculus, UniProt P04925); experiment: SPR
T1 construct: source: recombinant

[4] = target: mPrP immobilized on the SPR sensor chip (rmPrP) (Mus musculus, UniProt P04925); experiment: SPR
[5] = target: full-length, recombinant mouse prion protein (rmPrP23-231) (Mus musculus, UniProt P04925); experiment: FRET or BRET

B1: POM1 single-chain variable fragment (scFv) (scFv, V domains shown)
VH: QVQLQQSGTELVMPGASVKMSCKASGYTFTDYWMHWVKQRPGQGLEWIGSIDPSDSYTSHNEKFKGKATLTVDESSSTAYMQLSSLTSEDSAVYFCSRSGYGYYAMEYWGQGTSVTVSS
VL: DIVLTQSPAILSVSPGERVSFSCRASQNIGTSIHWYQQRTNESPRLIIKYASESISGIPSRFSGSGSGTDFTLSINSVESEDIADYYCQQSNTWPYTFGGGTKLELK
notes: also called scPOM1; source: POM1 pET-22b(+) expression plasmid
[1]
  Kd: 4.8 nM

B2: holo-POM1 (POM1 as IgG holoantibody) (antibody, V domains shown)
VH: B1 VH
VL: B1 VL
notes: also called POM1 IgG
[2]
  binding result: no binding

B3: POM1 (anti-PrP^C antibody; format not stated for the experiment) (antibody, V domains shown)
VH: B1 VH
VL: B1 VL
notes: also called scPOM1; wild-type POM1
[3]
  Kd: 0.25 nM

B4: POM1 single-chain variable fragment (wild type) (scFv, V domains shown)
VH: B1 VH
VL: B1 VL
notes: also called wt; scPOM1; source: POM1 pET-22b(+) expression plasmid
[4]
  Kd: 5.08 nM
[5]
  Kd: 2.8 nM
